In assay [1] the test system is Plasmodium falciparum. In words: Antiplasmodial activity against chloroquine-resistant Plasmodium falciparum W2 assessed as inhibition of parasite LDH activity after 72 hrs by spectrophotometry.
Assay [2] deals with Plasmodium falciparum. The assay can be described thus: Antiplasmodial activity against chloroquine-sensitive Plasmodium falciparum D10 assessed as inhibition of parasite LDH activity after 72 hrs by spectrophotometry.

The results in this text go back to ChEMBL document CHEMBL1770125, “Amodiaquine analogues containing NO-donor substructures: synthesis and their preliminary evaluation as potential tools in the treatment of cerebral malaria” (Eur J Med Chem, 2011).

For orientation: IC50 means the concentration that inhibits the measured activity by half.

`NCCCO[N+](=O)[O-]`: the IC50 in the assay on Plasmodium falciparum [1] and in the assay with Plasmodium falciparum [2] was above 5 µM throughout.
